The results in this text go back to patent publication US20150203548A1 (GOVERNMENT OF THE UNITED STATES OF AMERICA AS REPRESENTED …, published 2015).

The assay has as its target T1, Staphylococcal Enterotoxin B (SEB) (UniProt P01552 28-266).
T1 sequence: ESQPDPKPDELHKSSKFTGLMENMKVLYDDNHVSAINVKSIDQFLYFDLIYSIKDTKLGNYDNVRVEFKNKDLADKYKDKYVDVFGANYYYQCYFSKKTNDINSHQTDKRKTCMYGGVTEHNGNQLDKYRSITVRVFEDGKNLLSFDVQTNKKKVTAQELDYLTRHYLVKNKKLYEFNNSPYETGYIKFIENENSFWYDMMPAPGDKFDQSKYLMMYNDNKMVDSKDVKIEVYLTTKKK
Nature of the assay: SPR (ProteON XPR36), antigen-coated chip.

B1: sdAb A3-ATS (VHH)
VHH: EVQLVESGGGLVQAGDSLRLSCTASGRTFSRAVMGWFRQAPGKEREFVAAISAAPGTAYYAFYADSVRGRFSISADSAKNTVYLQMNSLKPEDTAVYYCAADLKMQVAAYMNQRSVDYWGQGTQVTVSS
Consider B1, for which the binding result is recorded as “binds”.
